The assay has as its system SEB loaded DCs. The following applies: effector-type CD8+ T cells with perforin/GrB pathway blocked (CMA 100 nM), 48 hours co-culture; then J558-CD40L stimulation, ELISA. (An ELISA detects its analyte on a solid surface through an enzyme-linked reagent.)

In the case of Concanamycin A, the “IL-12p70 production by DCs” value is “enhanced ability to produce IL-12p70”.

(Values after US7655216B2, “Vaccine for activating helper function of CD8+ Tcells” (University of Pittsburgh - Of the Commonwealth of Higher …, priority 2007, dated 2010).)
